In patent publication US20240207463A1, “RADIOACTIVE COMPLEX OF ANTI-EGFR ANTIBODY, AND RADIOPHARMACEUTICAL” (NIHON MEDI-PHYSICS CO., LTD., priority 2021, published 2024):

System: A431 cells
Test: Antitumor effect in subcutaneous tumor-bearing model of A431
Assay type: in vivo
Conditions: 15 kBq/mouse (100 μg/mouse as cetuximab) tail vein, 37 day point, P<0.05 or P<0.01

Comparative Example 1: Conjugate with cetuximab by using 225Ac-labeled DOTA-DBCO; contains a thiourea bond [reference compound]
antitumor effect versus antibody control group and Vehicle group: significant difference in the antitumor effect
